Measured values from several laboratories, pooled; numbers as filed in NIAID ChemDB.

Common to all: tests in culture

An empty or dashed field is not shown. Conditions beyond the fields shown may differ between rows. ECn: concentration that inhibits the pathogen or its effect by n%. MIC50, MIC90 and the like: level of inhibition, or share of isolates inhibited. Percent inhibition refers to the dose given; in toxicity tests it is the harm to the cells.

smiles | species | strain | cells | read by | read-out | tested at | value
C[C@H]1CN(c2c(F)cc3c(=O)c(C(=O)O)cn(C4CC4)c3c2OC(F)F)CCN1 | Staphylococcus aureus | 10 strains (oxacillin-resistant) |  |  | MIC90 |  | 8 µg/mL
O=C1C=CN([C@@H]2O[C@H](CO)[C@@H](O)[C@H]2O)C(=O)C1 | West Nile virus | NEW YORK | VERO | cytopathic effect | EC50 |  | >593 µg/mL
O=C(O)P(=O)(O)O | Varicella zoster virus | PMEA-resistant | HEL | plaque count | EC50 |  | 70.3 µg/mL
Nc1nc(N)c2ncn(CCOCP(=O)(O)O)c2n1 | Cytomegalovirus | DAVIS | HEL | plaque count | EC50 |  | 10 µg/mL
CCn1cc(C(=O)O)c(=O)c2cc(F)c(N3CCNCC3)cc21 | Haemophilus influenzae | 44 strains |  |  | MIC90 |  | 0.06 µg/mL
NC1=NC2C(C=CN2CC(CO)CCO)C(=O)N1 | Human herpesvirus 7 |  | CD4+ T lymphocytes | syncytia | EC50 |  | >230 µg/mL
COc1cccc(C=O)c1O | Aspergillus terreus | UAB698 |  | agar | MIC |  | 500 µM
Nc1ccn(C[C@H]2COP(=O)(O)CO2)c(=O)n1 | Human herpesvirus 7 |  | SupT1 | syncytia | EC50 |  | 17.5 µg/mL
CC(=O)OC[C@H]1O[C@@H](n2ncc(=O)[nH]c2=O)[C@H](OC(C)=O)[C@@H]1OC(C)=O | West Nile virus | NEW YORK | VERO | cytopathic effect | EC50 |  | 1.3 µg/mL
C#CC[C@@H](C(=O)N[C@H](/C=C/C(=O)OCC)C[C@@H]1CCNC1=O)n1cccc(NC(=O)c2cc(C)on2)c1=O | Rhinovirus | Serotype 45 | H1-HELA | cytopathic effect / XTT | EC50 |  | 0.02 µM
Nc1nc(N)c2ncn(CC(CO)OCP(=O)(O)O)c2n1 | Cytomegalovirus | AD169 | HEL | plaque count | EC50 |  | 100 µg/mL
Nc1nc(=O)n([C@@H]2CS[C@H](CO)O2)cc1F | SIV |  | PBMC | p27 / ELISA | EC50 |  | 0.1086 µM
COc1ccc(O)c(C=O)c1 | Aspergillus terreus | UAB673 |  | agar | MIC |  | 500 µM
Nc1nc2c(ncn2CCC(CO)CO)c(=O)[nH]1 | Varicella zoster virus | PMEDAP-resistant | HEL | plaque count | EC50 |  | 0.51 µg/mL
CC1(C)S[C@@H]2[C@H](NC(=O)[C@H](N)c3ccc(O)cc3)C(=O)N2[C@H]1C(=O)O | Haemophilus influenzae | 44 strains |  |  | MIC90 |  | >128 µg/mL
NC(=O)c1[nH]nc([C@@H]2O[C@H](CO)[C@@H](O)[C@H]2O)c1O | West Nile virus | Uganda | VERO | cytopathic effect / visual reading | EC50 |  | 0.5 µg/mL
Nc1nc2c(ncn2[C@@H]2C[C@H](CO)[C@H]2CO)c(=O)[nH]1 | Human herpesvirus 7 |  | SupT1 | syncytia | EC50 |  | 3.4 µg/mL
O=c1[nH]cnc2c1ncn2C[C@@H](CO)OCP(=O)(O)O | Cytomegalovirus | AD169 | HEL | cytopathic effect | EC50 |  | 200 µg/mL
Oc1c(O)c(Cl)c(Cl)c(Cl)c1Cl | Saccharomyces cerevisiae |  |  |  | MIC |  | 20 µg/mL
CCC(=O)CCCCC[C@@H]1NC(=O)[C@H]2CCCCN2C(=O)[C@H](C(C)CC)NC(=O)[C@H](Cc2c[nH]c3ccccc23)NC1=O | Toxoplasma gondii |  |  |  | MIC |  | 0.015 µg/mL
OC(Cn1cncn1)(Cn1cncn1)c1ccc(F)cc1F | Candida albicans | YL 345 |  | broth dilution | MIC |  | >512 µg/mL
NC(=O)c1ncn([C@@H]2O[C@H](CO)[C@@H](O)[C@H]2O)n1 | Influenza A virus | A/England/42/72 |  |  | MIC |  | 0.1 µg/mL
C#Cc1c(C(N)=O)ncn1[C@@H]1O[C@H](CO)[C@@H](O)[C@H]1O | Measles virus | SSPE Yamagata-1 | VERO | plaque count | EC50 |  | 0.32 µg/mL
Nc1nc(N)c2ncn(CCOCP(=O)(O)O)c2n1 | Varicella zoster virus | PCV-resistant/B | HEL | plaque count | EC50 |  | 3.5 µg/mL
O=c1ccn(CC(CO)OCP(=O)(O)O)c(=O)[nH]1 | Cytomegalovirus | DAVIS | HEL | cytopathic effect | EC50 |  | 100 µg/mL
CC(=O)Oc1ccc([C@@H]2CC(=O)c3c(cc(OC(C)=O)c(-c4c(OC(C)=O)cc5c(c4OC(C)=O)C(=O)C[C@@H](c4ccc(OC(C)=O)cc4)O5)c3OC(C)=O)O2)cc1 | Parainfluenza virus | C243 (TYPE 3) | MA-104 | cytopathic effect | EC50 |  | >10 µg/mL
O=c1[nH]c(=O)n([C@@H]2O[C@H](CO)[C@@H](O)[C@@H]2O)cc1/C=C/Br | Human herpesvirus 7 |  | CD4+ T lymphocytes | syncytia | EC50 |  | >250 µg/mL
Nc1nccc2c1ncn2[C@@H]1C=C[C@@H](O)[C@H]1O | Rotavirus A |  | MA-104 | virus yield | EC90 |  | 1 µg/mL
FC(F)(F)c1cccc([Se][Se]c2cccc(C(F)(F)F)c2)c1 | Candida dubliniensis |  |  | broth dilution | MIC |  | >64 µg/mL
NC1=NCN([C@@H]2O[C@H](CO)[C@@H](O)[C@H]2O)C(=O)N1 | West Nile virus | NEW YORK | VERO | cytopathic effect | EC50 |  | >9.8 µg/mL
COC(=O)[C@H]1[C@@H]2C[C@@H](O[C@@H]3O[C@H](C)[C@@H](O)[C@H](N)[C@@H]3O)/C=C/C=C/C=C/C=C/C=C/C=C/C=C/[C@H](C)[C@@H](O)[C@H](C)[C@H](C)OC(=O)C[C@H](O)C[C@H](O)[C@@H](O)CC[C@H](O)C[C@H](O)C[C@](O)(C[C@@H]1O)O2 | Vesicular stomatitis virus |  | L929 | virus yield | inhibition | 50 µg/mL | 0%
Nc1nc2c(ncn2COC(CO)CO)c(=O)[nH]1 | Varicella zoster virus | PCV-resistant/B | HEL | plaque count | EC50 |  | 0.16 µg/mL
Cc1cc(O)c2c(c1)C(=O)c1cccc(O)c1C2=O | Ross river virus |  | VERO | cytopathic effect | EC50 |  | >25 µg/mL
CC[C@H]1OC(=O)[C@H](C)[C@@H](O[C@H]2C[C@@](C)(OC)[C@@H](O)[C@H](C)O2)[C@H](C)[C@@H](O[C@@H]2O[C@H](C)C[C@H](N(C)C)[C@H]2O)[C@](C)(O)C[C@@H](C)C(=O)[C@H](C)[C@@H](O)[C@]1(C)O | Haemophilus influenzae | 44 strains |  |  | MIC50 |  | 4 µg/mL
CC1=CC(=O)c2c(O)cccc2C1=O | Aspergillus flavus | CCAM 080001 |  | broth dilution | MIC100 |  | 5 µg/mL
O=c1cnn([C@@H]2O[C@H](CO)[C@@H](O)[C@H]2O)c(=O)[nH]1 | West Nile virus | NEW YORK | VERO | cytopathic effect | EC50 |  | 1.2 µg/mL
CO[C@H]1/C=C/O[C@@]2(C)Oc3c(C)c(O)c4c(O)c(c(N5CCN(Cc6c(C)cc(C)cc6C)CC5)c(O)c4c3C2=O)NC(=O)/C(C)=C\C=C\[C@H](C)[C@H](O)[C@@H](C)[C@@H](O)[C@@H](C)[C@H](OC(C)=O)[C@@H]1C | Mycobacterium avium | 211-5 |  |  | MBC |  | >16 µg/mL
CC(C)(O)[C@H](O)COc1c2occc2cc2ccc(=O)oc12 | Plasmodium falciparum | CQ-resistant | RBC |  | EC90 |  | 25.5 µg/mL
COc1c(C)c2c(c(O)c1C/C=C(\C)CCC(=O)O)C(=O)OC2 | West Nile virus | NEW YORK | VERO | cytopathic effect / visual reading | EC50 |  | 2.7 µg/mL
Nc1nc2c(ncn2CCOCP(=O)(O)O)c(=O)[nH]1 | Cytomegalovirus | DAVIS | HEL | plaque count | EC50 |  | 0.4 µg/mL
c1ccc([Se][Se]c2ccccc2)cc1 | Candida glabrata | ATCC 10231 |  | broth dilution | MIC |  | >64 µg/mL
NC(=O)c1ncn([C@@H]2O[C@H](CO)[C@@H](O)[C@H]2O)n1 | Punta Toro virus |  | VERO | plaque count | EC50 |  | 114 µM
Nc1ncnc2c1ncn2[C@@H]1C=C[C@@H](O)[C@H]1O | Rotavirus A |  | MA-104 | virus yield | EC90 |  | 0.5 µg/mL
C=C[C@@H]1C[C@]1(NC(=O)[C@@H]1C[C@@H](Oc2nccc3ccc(Br)cc23)CN1C(C)=O)C(=O)NS(=O)(=O)C1CC1 | Hepatitis C virus | 1b C159S |  | luciferase | EC50 |  | >3 µM
Cc1cc(=O)c2c(O)c3c(O)cc(O)c4c5c(O)cc(O)c6c(O)c7c(=O)cc(C)c8c1c2c(c34)c(c65)c78 | West Nile virus | NEW YORK | VERO | cytopathic effect / visual reading | EC50 |  | >10 µg/mL
COc1ccc(OC)c(C=O)c1 | Aspergillus terreus | UAB673 |  | agar | MIC |  | 1500 µM
Nc1ncc2ncn(CCOCP(=O)(O)O)c2n1 | Cytomegalovirus | DAVIS | HEL | plaque count | EC50 |  | 200 µg/mL
Nc1ncc2c(ncn2COC(CO)CO)n1 | Human herpesvirus 7 |  | CD4+ T lymphocytes | syncytia | EC50 |  | 0.0096 µg/mL
Nc1ncnc2c1ncn2CCOCP(=O)(O)O | Cytomegalovirus | AD169 | HEL | plaque count | EC50 |  | 20 µg/mL
CC1NC(=O)C(C)NC(=O)C2CCCN2C(=O)C(CCCCCC(=O)C2CO2)NC1=O | Toxoplasma gondii |  |  |  | MIC |  | 0.015 µg/mL
Nc1ccn([C@@H]2C=C(CO)[C@@H](O)[C@@H]2O)c(=O)n1 | West Nile virus | NEW YORK | MA-104 | cytopathic effect / visual reading | EC50 |  | 0.3 µg/mL
Nc1nc2c(ncn2CCC(CO)CO)c(=O)[nH]1 | Human herpesvirus 7 |  | CD4+ T lymphocytes | syncytia | EC50 |  | >250 µg/mL

8 of the rows above, restated:

smiles | species | strain | cells | read by | read-out | tested at | value
COc1c(C)c2c(c(O)c1C/C=C(\C)CCC(=O)O)C(=O)OC2 | West Nile virus | NEW YORK | VERO | cytopathic effect / visual reading | EC50 |  | 2.7 µg/mL
O=c1[nH]c(=O)n([C@@H]2O[C@H](CO)[C@@H](O)[C@@H]2O)cc1/C=C/Br | Human herpesvirus 7 |  | CD4+ T lymphocytes | syncytia | EC50 |  | >250 µg/mL
Nc1nc2c(ncn2[C@@H]2C[C@H](CO)[C@H]2CO)c(=O)[nH]1 | Human herpesvirus 7 |  | SupT1 | syncytia | EC50 |  | 3.4 µg/mL
CCC(=O)CCCCC[C@@H]1NC(=O)[C@H]2CCCCN2C(=O)[C@H](C(C)CC)NC(=O)[C@H](Cc2c[nH]c3ccccc23)NC1=O | Toxoplasma gondii |  |  |  | MIC |  | 0.015 µg/mL
COC(=O)[C@H]1[C@@H]2C[C@@H](O[C@@H]3O[C@H](C)[C@@H](O)[C@H](N)[C@@H]3O)/C=C/C=C/C=C/C=C/C=C/C=C/C=C/[C@H](C)[C@@H](O)[C@H](C)[C@H](C)OC(=O)C[C@H](O)C[C@H](O)[C@@H](O)CC[C@H](O)C[C@H](O)C[C@](O)(C[C@@H]1O)O2 | Vesicular stomatitis virus |  | L929 | virus yield | inhibition | 50 µg/mL | 0%
CC[C@H]1OC(=O)[C@H](C)[C@@H](O[C@H]2C[C@@](C)(OC)[C@@H](O)[C@H](C)O2)[C@H](C)[C@@H](O[C@@H]2O[C@H](C)C[C@H](N(C)C)[C@H]2O)[C@](C)(O)C[C@@H](C)C(=O)[C@H](C)[C@@H](O)[C@]1(C)O | Haemophilus influenzae | 44 strains |  |  | MIC50 |  | 4 µg/mL
C=C[C@@H]1C[C@]1(NC(=O)[C@@H]1C[C@@H](Oc2nccc3ccc(Br)cc23)CN1C(C)=O)C(=O)NS(=O)(=O)C1CC1 | Hepatitis C virus | 1b C159S |  | luciferase | EC50 |  | >3 µM
FC(F)(F)c1cccc([Se][Se]c2cccc(C(F)(F)F)c2)c1 | Candida dubliniensis |  |  | broth dilution | MIC |  | >64 µg/mL